The numbers were not newly measured in article PMC8850191, “Mechanisms of inhibition and activation of extrasynaptic αβ GABAA receptors” (Nature, 2022), which cites them from elsewhere.

This data set relates to nAChRα7. On the set-up: method as in PMID 11867717. The following applies: toxin mutation relative to α-CBTx; cited from earlier work.

On to “Arg33Gly: α-CBTx with the finger II mutation Arg33Gly”, for which the reduction of affinity is recorded as 300 fold.

Turning to “Arg36Gly: α-CBTx with the finger II mutation Arg36Gly”, the reduction of affinity is on record as 300 fold.
